{"source": "paper PMC11002603", "about": "“The mechanism behind tenuazonic acid-mediated inhibition of plant plasma membrane H^+-ATPase and plant growth” (2024)", "key": {"[1]": {"target": "AHA2 (plant plasma membrane H^+-ATPase) (Arabidopsis thaliana, UniProt P19456)", "assay": "ATPase activity assay on yeast plasma-membrane fraction expressing AHA2, […] TeA, pH […]"}, "aha2R880A (AHA2 mutant)": {"target": "aha2R880A (AHA2 mutant) (Arabidopsis thaliana, UniProt P19456, R880A)", "assay": "ATPase activity assay on yeast plasma-membrane fraction, […] TeA, pH […]"}, "aha2R913A (AHA2 mutant)": {"target": "aha2R913A (AHA2 mutant) (Arabidopsis thaliana, UniProt P19456, R913A)", "assay": "ATPase activity assay on yeast internal-membrane fraction, […] TeA, pH […] (no inhibition in PM fraction)"}}, "data": [{"compound": "CCC(C)C1NC(=O)/C(=C(/C)O)C1=O", "note": "(stereo not drawn)", "values": [{"measurement": "% decrease in activity (50 μM)", "setting": "[1]", "value": "55 % decrease in activity (50 μM)"}, {"measurement": "ATPase activity assay on yeast plasma-membrane fraction, 50 uM TeA, pH 7", "setting": "aha2R880A (AHA2 mutant)", "value": "The inhibitory effect of TeA on the ATPase activity of aha2R880A was more pronounced than on the activity of AHA2"}, {"measurement": "% inhibition (50 μM)", "setting": "aha2R913A (AHA2 mutant)", "value": 91, "unit": "%"}]}]}
